Pooled drug test results. Numbers come from NIAID ChemDB, via PubChem.

Common to all: tests in culture; species: Herpes simplex virus 1; read by: cytopathic effect; endpoint: EC50

ECn: concentration that inhibits the pathogen or its effect by n%.

structure | cell line | strain | result
Nc1nc(N)c2ncn(CCOCP(=O)(O)O)c2n1 | HEL | KOS PMEA-resistant | 32.7 µg/mL
COC(=O)C1=CCCN(C)C1 | HeLa | KOS | >200 µg/mL
Nc1nc(N)c2ncn(CCOCP(=O)(O)O)c2n1 | HEL | PCV-resistant/A | 3.3 µg/mL
Nc1ncnc2c1ncn2[C@@H]1O[C@H](CO[C@H]2[C@H](O)[C@H](O[C@H]3O[C@@H](CO)[C@@H](O)[C@H](O)[C@@H]3N)[C@@H](O)[C@@H](OS(=O)(=O)O)[C@@H]2OC(=O)[C@@H](N)CO)[C@@H](O)[C@H]1O | HeLa | KOS | >200 µg/mL
NC(=O)c1cn([C@@H]2O[C@H](CO)[C@@H](O)[C@H]2O)c2ncnc(N)c12 | PRK | KOS | 0.07 µg/mL
O=C(O)P(=O)(O)O | - | B2006 (TK-) | 28 µg/mL
Nc1ncnc2c1ncn2C[C@@H](CO)OCP(=O)(O)O | HEL | KOS BVDU-resistant | 0.048 µg/mL
O=Nc1c(O)n(CCc2ccc(F)cc2)c(=O)[nH]c1=O | VERO | Leningrad/248/88 | >100 µg/mL
NC(=O)c1cn([C@@H]2O[C@H](CO)C[C@H]2O)c2ncnc(N)c12 | PRK | KOS | ≥10 µg/mL
O=C(O)P(=O)(O)O | HEL | PCV-resistant/B | 20 µg/mL
CC(C)(C)n1c(O)c(N=O)c(=O)[nH]c1=O | VERO | Leningrad/248/88 | 100 µg/mL
Cc1cn([C@@H]2O[C@H](CO)[C@@H](O)[C@@H]2O)c(=O)[nH]c1=O | HEL | KOS PFA-resistant | 0.48 µg/mL
C/C=C(\CO)C(=O)O[C@H]1[C@H](O)[C@@H](C(=O)OC)O[C@@H]2C[C@H]3O[C@@H](n4cnc5c(N)ncnc54)[C@H](OC)[C@H]3O[C@]21O | HeLa | KOS | >100 µg/mL
N#Cc1cn([C@@H]2O[C@H](CO)C[C@H]2O)c2ncnc(N)c12 | PRK | KOS | ≥0.4 µg/mL
Nc1nc2c(ncn2COC(CO)CO)c(=O)[nH]1 | HEL | ACV-resistant | 7.23 µg/mL
O=Nc1c(O)n(-c2cccc(C(F)(F)F)c2)c(=O)[nH]c1=O | VERO | Leningrad/248/88 | 100 µg/mL
Nc1nc2c(ncn2CCC(CO)CO)c(=O)[nH]1 | HEL | KOS ACV-resistant | >20 µg/mL
Nc1nc2c(ncn2CCC(CO)CO)c(=O)[nH]1 | HEL | ACV-resistant | >20 µg/mL
Nc1ccn(C[C@@H](CO)OCP(=O)(O)O)c(=O)n1 | HEL | KOS ACV-resistant | 0.29 µg/mL
O=Nc1c(O)n(-c2ccc(Br)cc2)c(=O)[nH]c1=O | VERO | Leningrad/248/88 | >100 µg/mL
Nc1nc2c(ncn2COCCOP(=O)(O)C(=O)O)c(=O)[nH]1 | VERO | L2 | 35.7 µM
Nc1ncnc2c1ccn2[C@@H]1O[C@H](CO)[C@H](O)[C@H]1O | PRK | C1 (101) (TK-) | 0.4 µg/mL
COc1ccc2cc3[n+](cc2c1OC)CCc1cc2c(cc1-3)OCO2 | HeLa | KOS | >200 µg/mL
N#Cc1cn([C@@H]2O[C@H](CO)[C@@H](O)[C@H]2O)c2ncnc(N)c12 | PRK | KOS | ≥0.04 µg/mL
Cn1c(=O)c2c(ncn2C)n(C)c1=O | HeLa | KOS | >200 µg/mL
Nc1ncnc2c1ncn2[C@@H]1O[C@H](CO)[C@@H](O)[C@@H]1O | HEL | KOS HPMPC-resistant | 11.7 µg/mL
CCc1cn([C@H]2C[C@H](O)[C@@H](CO)S2)c(=O)[nH]c1=O | VERO | L2/R acyclovir-resistant | 4.7 µM
Nc1ncnc2c1ncn2[C@@H]1O[C@H](CO)C[C@@H]1O | U138-MG | KOS | 8.75 µg/mL

An empty or dashed field is not shown. Rows are shuffled and stem from different studies.